Biological target: T1, His-ClnR (Clostridioides difficile 630 (630Δerm)?) (UniProt Q186H1)
T1 sequence: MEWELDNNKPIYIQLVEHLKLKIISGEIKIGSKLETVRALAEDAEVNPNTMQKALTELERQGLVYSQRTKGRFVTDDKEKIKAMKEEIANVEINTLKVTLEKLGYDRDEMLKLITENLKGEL
Experiment: EMSA
Details: 10 mM Tris pH 7.4, 10 mM MgCl2, 100 mM KCl, 7.5% glycerol, 2 mM DTT, 50 ng salmon sperm DNA, 10 ng labeled DNA, 30 min at 37 C; apparent Kd from cooperative …

Sequence: TATATCGATATGATTCCCTTTTGTTATACTTTTATTATAGAGTTTATATTTTATAGTAACAACTTTAAGAAACCGTTTCTATGTCACTTTAGATAATGACATTTGTCATTTTAGTTTTTGTTTAATTTTATTTATGTAGTATTTTGGAG (double strand) [PmtlA]
- binding: binds
